Anti-infective test results gathered from many reports (values: NIAID ChemDB through PubChem).

Common to all: growth or infection tests; organism: HIV-1

Two numbers with a dash give a range or band. ECn is the concentration giving n% inhibition of infection, replication or growth. Blank or dashed fields: not listed here. Lines come from different laboratories, so protocols vary.

SMILES	cells	measure	mutations	method	strain	value
COc1ccc(N(C)C(=O)[C@H](Cc2ccccc2)NC(=O)Cc2cccc(CC(=O)N[C@@H](Cc3ccccc3)C(=O)N(C)c3ccc(OC)cc3)c2)cc1	MT-2	EC50		luciferase	NL4-3	0.85 µM
O=C1Nc2ccc(F)c(F)c2[C@@](/C=C/C2CC2)(C(F)(F)F)N1		EC90	RT-V108I			<0.012 µM
Nc1nc(NC2CC2)c2ncn([C@H]3C=C[C@@H](CO)C3)c2n1	MT-2	EC50	K65R M184V	recombinant virus assay	Clinical isolate	0.8712 µM
N#Cc1cc2[nH]c3ccccc3c2n(-c2ccc([N+](=O)[O-])cc2)c1=O	MT-4	EC50	RT-Y188L	cytopathic effect / MTT	F	1.26 µM
CCN1c2ncc(CCOc3ccc(C(=O)O)c4c3CCCC4)cc2C(=O)N(C)c2ccc(C)nc21	C8166	EC50	RT-K103N Y181C	p24		<0.1 µM
CCC[C@@]1(CCc2ccccc2)CC(O)=C([C@H](CC)c2cccc(NS(=O)(=O)c3ccc(C(F)(F)F)cn3)c2)C(=O)O1	MT-4	EC50	L10F I47V L90M	reporter gene	T21217	11800 nM
CC(C)CN(C[C@@H](O)[C@H](Cc1ccccc1)NC(=O)O[C@H]1CO[C@H]2OCC[C@H]21)S(=O)(=O)c1ccc2c(c1)OCO2	PHA-PBM	EC50		p24	92TH019	0.0003 µM
C=C(Cl)COc1cc(NC(=S)c2ccoc2C)ccc1C	CEM	EC50	RT-Y188H	syncytia	HEPT-resistant (RT Y188H)	2 µg/mL
COc1ccnc2[nH]cc(C(=O)C(=O)N3C4CCCC3CN(C(=O)c3ccccc3)C4)c12	TZM-bl	EC90		luciferase	AC10	13 µM
Cc1cc(C#N)cc(C(=O)c2cc(Cl)ccc2OCC(=O)Nc2ccc(S(N)(=O)=O)cc2C)c1	HeLa + HELA CD4+	EC50	RT-K103N	β-galactosidase	HXB2	<0.01 µM
CCCc1cc(=O)oc2c3c(c4c(c12)OC(C)(C)CC4)O[C@H](C)[C@@H](C)[C@@H]3O	CEM + CEM-SS	EC50		cytopathic effect / XTT	RF	0.27 µM
COc1ccc(NC(=O)c2ccoc2C)cc1OCC=C(Cl)Cl	CEM	EC50	RT-Y188H	syncytia	HEPT-resistant (RT Y188H)	10 µg/mL
N#CC1=CC2C(c3ccccc3N2CCN2CCCC2)N(c2ccc(C#N)cc2)C1=O	MT-4	EC50		cytopathic effect / MTT	LAI	1–32 µM
C/C=C/CSc1cc(NC(=S)c2ccsc2C)ccc1Cl	CEM + CEM-SS	EC50	RT-K101E	p24	NL4-3	1 µM
CCN1c2ncc(CCOc3ccc(-c4ccc(N)c(C(=O)O)c4)cc3C)cc2C(=O)N(C)c2cccnc21	C8166	EC50		p24	IIIB	<0.01 µM
CN(C(=O)[C@H](Cc1cc(F)cc(F)c1)NC(=O)NS(=O)(=O)N[C@@H](Cc1cc(F)cc(F)c1)C(=O)N(C)c1ccc(N2CCOCC2)cc1)c1ccc(N2CCOCC2)cc1	MT-2	EC50		luciferase	NL4-3	0.09 µM
Cc1ccccc1CN1CCC(Nc2nc(Oc3c(C)cc(/C=C/C#N)cc3C)c3sccc3n2)CC1	MT-4	EC50	NNRTI-resistant (RT K103N)	MTT	IIIB	0.0248 µM
O=C1Nc2ccc(Cl)cc2[C@@](/C=C/C2CC2)(C(F)(F)F)N1		EC90	RT-L100I			0.02 µM
CC1(C)CC=C(c2cn(-c3nccc(C(=O)NC4CCC(N5CC6CCC(C5)O6)CC4)n3)c3ccc(F)c([C@H](OC(C)(C)C)C(=O)O)c23)CC1	MT-4	EC50	N222K	luminescence	NL4-3	0.0052 µM
CCC(=O)c1ccc(F)c([C@@H]2C[C@@H]2NC(=O)Nc2ccc(C#N)cn2)c1O	TZM-bl	EC50	NNRTI-resistant (RT F227L)	β-galactosidase / luminescence	LAI	0.00088 µM
CCOC(=O)c1nc(-c2ccc(N3C(=O)C=CC4C3c3ccccc3N4C)cc2)no1	MT-4	EC50		cytopathic effect / MTT	LAI	>32 µM
Cc1cccc(Nn2c(-c3ccccc3)c(C)[nH]c2=S)c1	MT-4	EC50	RT-K103N Y181C	cytopathic effect / MTT	SO561945 (RT K103N Y181C)	26.1 µM
COc1ccc(N(C)C(=O)[C@H](Cc2ccccc2)NC(=O)NS(=O)(=O)N[C@@H](Cc2ccccc2)C(=O)N(C)c2ccc(OC)cc2)cc1	MT-2	EC50		luciferase	NL4-3	0.03 µM
CCN1c2ncc(CCOc3ccc(CC(=O)O)c4c3CCCC4)cc2C(=O)N(C)c2ccc(F)nc21	C8166	EC50		p24	WT	<0.1 µM
Cc1cc(S(N)(=O)=O)ccc1NC(=O)COc1ccc(Cl)cc1C(=O)c1cc(F)cc(F)c1	HeLa + HELA CD4+	EC50	RT-K101E	β-galactosidase	HXB2	<0.01 µM
Clc1cc(CN2CCCNCCNCCCNCC2)cc(Cl)n1	PBMC	EC50		p24	X4 clinical isolate #17	5.9 µM
C[C@@H]1CN(C(=O)c2ccccc2)CCN1C(=O)C(=O)c1c[nH]c2c(NC(=O)NCCCCCCCCNC(=O)Nc3cccc(B(O)O)c3)cccc12	HeLa	EC50		luciferase / reporter gene		<1 µM
Cc1cc(OCCCS(N)(=O)=O)ccc1NC(=O)COc1ccc(Cl)cc1C(=O)c1cc(F)cc(C(F)(F)F)c1	MT-4	EC50	RT-Y181C	cytopathic effect / propidium iodide	Nevirapine-resistant (RT Y181C)	<0.01 µM
Cc1cc(/C=C/C#N)cc(C)c1Oc1nc(NC2CCN(Cc3ccc([N+](=O)[O-])cc3)CC2)nc2ccsc12	MT-4	EC50		MTT	RES056	0.111 µM
COc1ccc(N(C)C(=O)[C@H](Cc2ccccc2)NC(=O)/C=C\C(=O)N[C@@H](Cc2ccccc2)C(=O)N(C)c2ccc(OC)cc2)cc1	MT-2	EC50		luciferase	NL4-3	0.16 µM
Cc1cc(/C=C/C#N)cc(C)c1Oc1nc(NC2CCN(Cc3ccc(C#N)cc3)CC2)nc2ccsc12	MT-4	EC50	NNRTI-resistant (RT E138K)	MTT	IIIB	0.0296 µM
Cc1ncn(Nc2cccc(Cl)c2)c1-c1cccc(C#N)c1	MT-4	EC50	RT-K103N Y181C	cytopathic effect / MTT	SO561945 (RT K103N Y181C)	22.57 µM
CN1c2ccccc2C2C1C=CC(=O)N2c1ccc(-c2noc(-c3cccc([N+](=O)[O-])c3)n2)cc1	MT-4	EC50		cytopathic effect / MTT	LAI	>32 µM
Cc1cc(/C=C/C#N)cc(C)c1Oc1nc(NC2CCN(Cc3ccncc3)CC2)nc2ccsc12	MT-4	EC50	NNRTI-resistant (RT E138K)	MTT	IIIB	0.00853 µM
Cc1nc2ccccc2c(-c2cc(F)c3c(c2C)CCCO3)c1[C@H](OC(C)(C)C)C(=O)O	MT-4	EC50	T124S/T125A	luminescence	NL4-3	0.028 µM
COc1ccc(N(C)C(=O)[C@H](Cc2ccccc2)NC(=O)Cn2c(=O)n(CC(=O)N[C@@H](Cc3ccccc3)C(=O)N(C)c3ccc(OC)cc3)c3cc(N)ccc32)cc1	MT-2	EC50		luciferase	NL4-3	0.34 µM
C#C[C@@]1(CO)C=C[C@H](n2cc(C)c(=O)[nH]c2=O)O1	MT-2	EC50	M41L/D67N/K70R/A98G/K101E/M184V/G190A/L210W/T215Y/K219E	recombinant virus assay	Clinical isolate	>46.2 µM
C[C@@H]1CN(C(=O)c2ccccc2)CCN1C(=O)C(=O)c1c[nH]c2c(NC(=O)NCCCCCCNC(=O)Nc3cccc(B(O)O)c3)cccc12	HeLa	EC50		luciferase / reporter gene		<1 µM
Cc1cc(C)cc(C(=O)c2cc(Cl)ccc2OCC(=O)Nc2ccc(S(N)(=O)=O)cc2C)c1	HeLa + HELA CD4+	EC50	RT-Y181C	β-galactosidase	HXB2	<0.01 µM
N#CC1=CC2C(c3ccccc3N2Cc2ccncc2)N(c2ccc([N+](=O)[O-])cc2)C1=O	MT-4	EC50		cytopathic effect / MTT	LAI	<1 µM
CCN1c2ncc(CCOc3ccc(-c4ccc(C)[n+]([O-])c4)cc3C)cc2C(=O)N(C)c2cccnc21	C8166	EC50	RT-K103N Y181C	p24		<0.01 µM
Cc1cc(C#N)cc(C(=O)c2cc(Cl)ccc2OCC(=O)Nc2ccc(S(N)(=O)=O)nc2C)c1	HeLa + HELA CD4+	EC50	RT-V108I Y181C	β-galactosidase	HXB2	<0.01 µM
C[C@H]1[C@H](O)[C@@H](C)/C=C/C=C/C=C/C=C/C=C/C=C/C=C/[C@H](O[C@@H]2O[C@H](C)[C@@H](O)[C@H](N)[C@@H]2O)C[C@@H]2O[C@](O)(C[C@@H](O)C[C@@H](O)CC[C@H](O)[C@@H](O)C[C@@H](O)CC(=O)O[C@H]1C)C[C@H](O)[C@H]2C(=O)O	PBMC	EC50		p24 / RT activity	RU132 CLADE G R5 (NSI)	1.8 µM
CN1c2ccccc2C2C1C=CC(=O)N2c1ccc(-c2noc(C3CC3)n2)cc1	MT-4	EC50		cytopathic effect / MTT	LAI	1–32 µM
CC(=O)COc1cc(NC(=S)OC(C)C)ccc1Cl	CEM	EC50		syncytia	IIIB	2.7 µM
CN1c2ccccc2C2C1C=CC(=O)N2c1ccc(C(N)=O)cc1	MT-4	EC50		cytopathic effect / MTT	LAI	1–32 µM
CCN1c2ncc(CCOc3ccc(/C=C(\C)C(=O)O)c4ccccc34)cc2C(=O)N(C)c2cccnc21	C8166	EC50	RT-K103N Y181C	p24		<0.1 µM
Cc1cc(F)cc(N(C)C(=O)[C@H](Cc2ccccc2)NC(=O)NS(=O)(=O)N[C@@H](Cc2ccccc2)C(=O)N(C)c2cc(C)cc(F)c2)c1	MT-2	EC50		luciferase	NL4-3	3.91 µM
Cc1[nH]c(=S)n(Nc2cccc(Br)c2)c1-c1ccccc1	MT-4	EC50		cytopathic effect / MTT	IIIB	9.96 µM
N#CC(=C1CCN(C(=O)C(=O)c2c[nH]c3c(NC(=O)Nc4ccc(C(=O)C(F)(F)F)cc4)cccc23)CC1)c1ccccc1	HeLa	EC50		luciferase / reporter gene		<1 µM
Cc1cc(S(N)(=O)=O)ccc1NC(=O)COc1ccc(Cl)cc1C(=O)c1cccc(C#N)c1	HeLa + HELA CD4+	EC50	RT-K103N Y181C	β-galactosidase	HXB2 (RT-K103N Y181C) Recombinant	0.011–0.1 µM
CCC(C)OC(=O)c1cc(NC(=S)OC(C)C)ccc1Cl	CEM	EC50	RT-L100I	syncytia		1.819 µM
Cc1cc(/C=C/C#N)cc(C)c1Oc1nc(NC2CCN(Cc3ccc(F)cc3)CC2)nc2ccsc12	MT-4	EC50		MTT	RES056	0.125 µM
COc1ccc(N(C)C(=O)[C@H](Cc2ccccc2)NC(=O)c2cccc(S(=O)(=O)N[C@@H](Cc3ccccc3)C(=O)N(C)c3ccc(OC)cc3)c2)cc1	MT-2	EC50		luciferase	NL4-3	0.72 µM
C#CCO/N=C/c1cc(NC(=S)c2ccoc2C)ccc1Cl	CEM	EC50		syncytia	IIIB	0.047 µM
CCN1c2ncc(CCOc3ccc(C4CC4C(=O)O)c4ccccc34)cc2C(=O)N(C)c2ccc(F)nc21	C8166	EC50	RT-K103N Y181C	p24		0.1–1 µM
COc1ccc(N(C)C(=O)[C@H](Cc2ccccc2)NC(=O)c2cc(C(=O)O)cc(C(=O)N[C@@H](Cc3ccccc3)C(=O)N(C)c3ccc(OC)cc3)c2)cc1	MT-2	EC50		luciferase	NL4-3	10.06 µM
COc1ccnc2[nH]cc(C(=O)C(=O)N3C4CCC3CN(C(=O)c3ccccc3)C4)c12	TZM-bl	EC99		luciferase	SF162	88 µM
Cc1occc1C(=O)Nc1ccc(Cl)c(SCC=C(Cl)Cl)c1	CEM	EC50	RT-L100I	syncytia	TIBO R82150-resistant (RT L100I)	0.93 µg/mL
COC(=O)c1ccc(CN2CCC(Nc3nc(Oc4c(C)cc(C#N)cc4C)c4ccsc4n3)CC2)cc1	MT-4	EC50	NNRTI-resistant (RT Y188L)	MTT	IIIB	0.158 µM
COc1cccc(Nn2cnc(C)c2-c2ccccc2)c1	MT-4	EC50		cytopathic effect / MTT	NL4-3	>34.44 µM
Cc1cc(S(N)(=O)=O)ccc1NC(=O)COc1ccc(Cl)cc1C(=O)c1cc(C#N)cc(C#N)c1	MT-4	EC50	RT-Y181C	cytopathic effect / propidium iodide	Nevirapine-resistant (RT Y181C)	<0.01 µM
COP(=O)(c1cc(C)cc(CCC#N)c1)c1c(C(N)=O)[nH]c2ccc(Cl)c(F)c12	MT-4	EC50		cytopathic effect	IIIB	0.001 µM
CCN1c2ncc(CCOc3ccc(-c4cocn4)cc3C)cc2C(=O)N(C)c2cccnc21	C8166	EC50	RT-K103N Y181C	p24		<0.01 µM
Cc1cc2[nH]cnc2cc1NC(=O)COc1ccc(Cl)cc1C(=O)c1cc(F)cc(C(F)(F)F)c1	HeLa + HELA CD4+	EC50	RT-K101E	β-galactosidase	HXB2	<0.01 µM
CCN1c2ncc(CCOc3ccc(C(=O)Nc4cccn(CC(=O)O)c4=O)cc3C)cc2C(=O)N(C)c2cccnc21	C8166	EC50	RT-K103N Y181C	p24		>0.05 µM
C[C@@H]1CN(C(=O)c2ccccc2)CCN1C(=O)C(=O)c1c[nH]c2c(NC(=O)c3cccc(B(O)O)c3)cccc12	HeLa	EC50		luciferase / reporter gene		<1 µM

Repeating the final 7 entries:

SMILES	cells	measure	mutations	method	strain	value
COc1cccc(Nn2cnc(C)c2-c2ccccc2)c1	MT-4	EC50		cytopathic effect / MTT	NL4-3	>34.44 µM
Cc1cc(S(N)(=O)=O)ccc1NC(=O)COc1ccc(Cl)cc1C(=O)c1cc(C#N)cc(C#N)c1	MT-4	EC50	RT-Y181C	cytopathic effect / propidium iodide	Nevirapine-resistant (RT Y181C)	<0.01 µM
COP(=O)(c1cc(C)cc(CCC#N)c1)c1c(C(N)=O)[nH]c2ccc(Cl)c(F)c12	MT-4	EC50		cytopathic effect	IIIB	0.001 µM
CCN1c2ncc(CCOc3ccc(-c4cocn4)cc3C)cc2C(=O)N(C)c2cccnc21	C8166	EC50	RT-K103N Y181C	p24		<0.01 µM
Cc1cc2[nH]cnc2cc1NC(=O)COc1ccc(Cl)cc1C(=O)c1cc(F)cc(C(F)(F)F)c1	HeLa + HELA CD4+	EC50	RT-K101E	β-galactosidase	HXB2	<0.01 µM
CCN1c2ncc(CCOc3ccc(C(=O)Nc4cccn(CC(=O)O)c4=O)cc3C)cc2C(=O)N(C)c2cccnc21	C8166	EC50	RT-K103N Y181C	p24		>0.05 µM
C[C@@H]1CN(C(=O)c2ccccc2)CCN1C(=O)C(=O)c1c[nH]c2c(NC(=O)c3cccc(B(O)O)c3)cccc12	HeLa	EC50		luciferase / reporter gene		<1 µM